Share of PSTVd stem 15 variants by leaf site

Reference: Wu et al. 2024, doi:10.1371/journal.ppat.1012142.

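Three N. benthamiana plants were inoculated with the whole mutant pool. Samples came from the inoculated region at 5 days, the leaf margin at 10 and upper systemic leaves at 12.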

The pool varies stem 15 of the PSTVd intermediate strain in the pattern CUGGAGCGAUNGNNUNNG; wild type is CUGGAGCGAUCGCUUCGG (upper and lower strand joined, each 5' to 3', the first 9 letters being the upper strand).

Numbers give reads per thousand; 0 = not seen among the reads, higher = more abundant.
Each site shows the three plants.
"Pool" is the share in the plasmid pool used as inoculum, on the same scale.
The inoculated region was read from the minus strand, the other sites from the plus strand.
Samples held 36,693 to 63,082 reads, so the smallest values rest on one or two reads.
Sequences that differ at fixed positions probably stem from PCR or sequencing errors, and defective variants can be carried along by functional ones.
Wild type was 10.2 per thousand in the pool and the most common sequence in every sample (inoculated region 285, 367, 312; leaf margin 785, 865, 782; systemic leaves 854, 898, 915).

{"sequence": "CUGGAGCGAUAGUGUAGG", "pool": "1.37", "inoculated region": "0.450 / 0.503 / 0.447", "leaf margin": "0.103 / 0.0273 / 0.0317", "systemic leaves": "0 / 0 / 0"}
{"sequence": "CUGGAGCGAUAGUGUAUG", "pool": "0.760", "inoculated region": "0.235 / 0.209 / 0.298", "leaf margin": "0 / 0.0545 / 0.0159", "systemic leaves": "0 / 0 / 0"}
{"sequence": "CUGGAGCGAUAGUGUCAG", "pool": "0.905", "inoculated region": "0.274 / 0.126 / 0.242", "leaf margin": "0.103 / 0.0273 / 0.0159", "systemic leaves": "0 / 0 / 0"}
{"sequence": "CUGGAGCGAUAGUGUCCG", "pool": "0.695", "inoculated region": "0.352 / 0.272 / 0.372", "leaf margin": "0.0414 / 0.0545 / 0.0793", "systemic leaves": "0 / 0 / 0"}
{"sequence": "CUGGAGCGAUAGUGUCGG", "pool": "0.743", "inoculated region": "0.352 / 0.293 / 0.261", "leaf margin": "0.0620 / 0.0545 / 0.0159", "systemic leaves": "0 / 0 / 0"}
{"sequence": "CUGGAGCGAUAGUGUCUG", "pool": "0.711", "inoculated region": "0.333 / 0.168 / 0.298", "leaf margin": "0.0414 / 0 / 0.0634", "systemic leaves": "0 / 0 / 0"}
{"sequence": "CUGGAGCGAUAGUGUGAG", "pool": "0.808", "inoculated region": "0.372 / 0.251 / 0.223", "leaf margin": "0.0620 / 0.0273 / 0.0317", "systemic leaves": "0 / 0 / 0"}
{"sequence": "CUGGAGCGAUAGUGUGCG", "pool": "2.08", "inoculated region": "0.939 / 1.03 / 1.19", "leaf margin": "0.0620 / 0.0273 / 0.0159", "systemic leaves": "0.0198 / 0 / 0.0199"}
{"sequence": "CUGGAGCGAUAGUGUGGG", "pool": "0.857", "inoculated region": "0.391 / 0.188 / 0.298", "leaf margin": "0.0414 / 0.0545 / 0", "systemic leaves": "0 / 0 / 0"}
{"sequence": "CUGGAGCGAUAGUGUGUG", "pool": "0.840", "inoculated region": "0.235 / 0.377 / 0.186", "leaf margin": "0.0207 / 0 / 0", "systemic leaves": "0 / 0 / 0"}
{"sequence": "CUGGAGCGAUAGUGUUAG", "pool": "1.36", "inoculated region": "2.31 / 1.38 / 1.79", "leaf margin": "0.765 / 0.654 / 0.935", "systemic leaves": "0.812 / 0.620 / 0.0199"}
{"sequence": "CUGGAGCGAUAGUGUUCG", "pool": "0.792", "inoculated region": "0.333 / 0.377 / 0.298", "leaf margin": "0.0827 / 0.0545 / 0.0317", "systemic leaves": "0 / 0 / 0"}
{"sequence": "CUGGAGCGAUAGUGUUGC", "pool": "0.533", "inoculated region": "0.176 / 0.126 / 0.168", "leaf margin": "0 / 0 / 0", "systemic leaves": "0 / 0 / 0"}
{"sequence": "CUGGAGCGAUAGUGUUGG", "pool": "0.808", "inoculated region": "0.215 / 0.272 / 0.335", "leaf margin": "0.124 / 0 / 0.0476", "systemic leaves": "0 / 0 / 0"}
{"sequence": "CUGGAGCGAUAGUGUUUG", "pool": "1.45", "inoculated region": "0.763 / 1.76 / 0.744", "leaf margin": "0.0414 / 0.0545 / 0.0159", "systemic leaves": "0 / 0 / 0.0199"}
{"sequence": "CUGGAGCGAUAGUUUAAG", "pool": "0.873", "inoculated region": "0.176 / 0.188 / 0.279", "leaf margin": "0.0827 / 0.0545 / 0.0476", "systemic leaves": "0 / 0 / 0"}
{"sequence": "CUGGAGCGAUAGUUUACG", "pool": "2.02", "inoculated region": "0.724 / 0.503 / 1.04", "leaf margin": "0.0620 / 0 / 0.0317", "systemic leaves": "0 / 0 / 0.0199"}
{"sequence": "CUGGAGCGAUAGUUUAGG", "pool": "0.824", "inoculated region": "0.411 / 0.251 / 0.391", "leaf margin": "0.103 / 0.0545 / 0.0317", "systemic leaves": "0 / 0 / 0"}
{"sequence": "CUGGAGCGAUAGUUUAUG", "pool": "1.62", "inoculated region": "1.13 / 0.523 / 0.986", "leaf margin": "0.145 / 0.0818 / 0.0159", "systemic leaves": "0 / 0 / 0"}
{"sequence": "CUGGAGCGAUAGUUUCAG", "pool": "0.921", "inoculated region": "0.430 / 0.293 / 0.428", "leaf margin": "0.124 / 0 / 0.0317", "systemic leaves": "0 / 0 / 0"}
{"sequence": "CUGGAGCGAUAGUUUCCG", "pool": "0.905", "inoculated region": "0.294 / 0.272 / 0.223", "leaf margin": "0.0620 / 0.0273 / 0.0159", "systemic leaves": "0 / 0 / 0"}
{"sequence": "CUGGAGCGAUAGUUUCGG", "pool": "0.711", "inoculated region": "0.215 / 0.251 / 0.465", "leaf margin": "0.0414 / 0 / 0.0159", "systemic leaves": "0 / 0 / 0"}
{"sequence": "CUGGAGCGAUAGUUUCUG", "pool": "1.58", "inoculated region": "1.57 / 1.07 / 1.12", "leaf margin": "0.103 / 0.0273 / 0", "systemic leaves": "0 / 0 / 0"}
{"sequence": "CUGGAGCGAUAGUUUGAG", "pool": "0.776", "inoculated region": "0.372 / 0.188 / 0.242", "leaf margin": "0.0827 / 0.0545 / 0.0317", "systemic leaves": "0 / 0 / 0"}
{"sequence": "CUGGAGCGAUAGUUUGCG", "pool": "0.857", "inoculated region": "0.313 / 0.209 / 0.242", "leaf margin": "0.0620 / 0.0273 / 0.0317", "systemic leaves": "0 / 0 / 0"}
{"sequence": "CUGGAGCGAUAGUUUGGG", "pool": "0.743", "inoculated region": "0.294 / 0.251 / 0.335", "leaf margin": "0.0414 / 0.0545 / 0.0317", "systemic leaves": "0 / 0 / 0"}
{"sequence": "CUGGAGCGAUAGUUUGUG", "pool": "0.824", "inoculated region": "0.215 / 0.293 / 0.316", "leaf margin": "0.0620 / 0 / 0.0317", "systemic leaves": "0 / 0 / 0"}
{"sequence": "CUGGAGCGAUAGUUUUAG", "pool": "0.937", "inoculated region": "2.62 / 1.05 / 1.41", "leaf margin": "0.641 / 0 / 0.745", "systemic leaves": "1.07 / 0 / 0"}
{"sequence": "CUGGAGCGAUAGUUUUCG", "pool": "0.760", "inoculated region": "0.137 / 0.230 / 0.223", "leaf margin": "0.103 / 0.0273 / 0.0159", "systemic leaves": "0 / 0 / 0"}
{"sequence": "CUGGAGCGAUAGUUUUGG", "pool": "2.13", "inoculated region": "2.45 / 2.81 / 1.73", "leaf margin": "0.0620 / 0.0818 / 0", "systemic leaves": "0 / 0 / 0"}
{"sequence": "CUGGAGCGAUAGUUUUUG", "pool": "0.679", "inoculated region": "0.196 / 0.377 / 0.465", "leaf margin": "0 / 0.0545 / 0", "systemic leaves": "0 / 0 / 0"}
{"sequence": "CUGGAGCGAUAUUUUCGG", "pool": "0.0162", "inoculated region": "0 / 0 / 0", "leaf margin": "0 / 0 / 0", "systemic leaves": "0 / 0 / 0"}
{"sequence": "CUGGAGCGAUCACUUCGG", "pool": "0.339", "inoculated region": "0.685 / 0.649 / 0.726", "leaf margin": "0.662 / 0.709 / 0.808", "systemic leaves": "0.970 / 1.17 / 0.957"}
{"sequence": "CUGGAGCGAUCCCUUCGG", "pool": "0.0162", "inoculated region": "0.0391 / 0.0838 / 0.0186", "leaf margin": "0.0207 / 0 / 0.0476", "systemic leaves": "0 / 0.0443 / 0.0199"}
{"sequence": "CUGGAGCGAUCGAAUAAG", "pool": "0.711", "inoculated region": "0.391 / 0.230 / 0.372", "leaf margin": "0.103 / 0.0273 / 0.0159", "systemic leaves": "0 / 0 / 0"}
{"sequence": "CUGGAGCGAUCGAAUACG", "pool": "1.66", "inoculated region": "0.509 / 0.523 / 0.893", "leaf margin": "0.0414 / 0 / 0.0317", "systemic leaves": "0 / 0 / 0"}
{"sequence": "CUGGAGCGAUCGAAUAGG", "pool": "1.00", "inoculated region": "0.313 / 0.209 / 0.447", "leaf margin": "0.0620 / 0 / 0.0159", "systemic leaves": "0 / 0 / 0"}

The last 3 entries again:

sequence	pool	inoculated region	leaf margin	systemic leaves
CUGGAGCGAUCGAAUAAG	0.711	0.391 / 0.230 / 0.372	0.103 / 0.0273 / 0.0159	0 / 0 / 0
CUGGAGCGAUCGAAUACG	1.66	0.509 / 0.523 / 0.893	0.0414 / 0 / 0.0317	0 / 0 / 0
CUGGAGCGAUCGAAUAGG	1.00	0.313 / 0.209 / 0.447	0.0620 / 0 / 0.0159	0 / 0 / 0